From US20250101137A1 (TRUSTEES OF TUFTS COLLEGE, published 2025)

Molecular target: Botulinum neurotoxin serotype B (BoNT/B) holotoxin (Clostridium botulinum, UniProt P10844)
Experiment: SPR; immobilised form of BoNT/B not stated

B1: ciB-A11/B5 VHH heterodimer (bispecific antibody)
chain: GGGGLVQPGGALRLSCAASVFGMDYYYIGWVRQAPGKEREGVSCISNIGRTHYADSVKGRFTISRDNAKNTVYLQMNSLKPEDTAVYYCAAAPLVGNYCPASYEYESWGQGTQVTVSSAHHSEDPSGGGGSGGGGSGGGGSSGGGLVQPGGSLRLSCAASGQSLDNYIIGWFRQAPGKEREGVSCIDRTGTVTHYADSVKGRFTISTDNVKNTVYLEMNDLKPEDTATYFCAAERRWGVVSVCVISDYYFDSWGQGTQVTVSSAHHSEDPS
**Q.** For B1, which Kd is on record?
**A.** 5.3 nM
